{
  "source": "patent US10092573B2",
  "about": "“Gastric and colonic formulations and methods for making and using them” (Salix Pharmaceuticals, Inc., priority 2010, dated 2018)",
  "origin": "cited, not measured here",
  "test_system": "colonic bacteria / faecal flora",
  "data": [
    {"compound": "OC[C@@H](O)[C@@H](O)CO", "note": "[Erythritol, (2R,3S)-butane-1,2,3,4-tetraol]", "values": [
      {"measurement": "metabolism by faecal (fecal) flora", "result": "no significant metabolism"},
      {"measurement": "fermentation by colonic bacteria", "setting": "only non-combustible short chain fatty acids and CO2 in small amounts", "result": "none or minimal fermentation"}
    ]}
  ]
}
